In this assay the target is SARS-CoV-2 receptor binding domain (RBD), biotinylated (SARS-CoV-2, Wuhan-type, UniProt P0DTC2, biotin (BirA, on the Avi tag)). The assay is described as follows: BLI. As to conditions: both partners purified.

This is an account of results in publication PMC9528872 (Nature Communications, 2022).

B1: Ab 12 Fab (Fab, V domains shown)
VH: EVQLVESGPGVVSPSATLFLTCSVSGGSIRTHSWNWIRQPPGKPLEWIGFIHHSGATNKNPSLKSRVTISSDTSKNEFSLTLTSVTAADTAVYYCARGPGILSYWSRGTLVTVSS
VL: LPVLTQPPSASGTPGQRVTISCSGSSSNIGSNTVNWYQQLPGTAPKLLIYSNNQRPSGVPDRFSGSKSGTSASLAISGLQSEDEADYYCAAWDDSLNVHYVFGSGTKVTVL
In general, Kd refers to the concentration at which binding is half-saturated. A lower Kd goes with tighter binding. The koff is the first-order rate constant of dissociation. The low end stands for slow dissociation, the high end for fast dissociation. By kon is commonly meant a measure of how fast the partners come together. Low values mean slow association, high ones fast association. B1 showed a Kd of 8.52 nM, a koff of 0.00289 s⁻¹ and a kon of 339000 M⁻¹ s⁻¹.
